Assay results from PubChem BioAssay AID1259422 (The Scripps Research Institute Molecular Screening Center, 2018).
This is a selection; strong and weak results do not stand in their true shares. Activity calls are given as the source filed them. Rule as the data show it: active = inhibition above about 32%; inactive = the rest.

Test: TEAD-YAP interaction inhibition, primary screen, TEAD-YAP interaction inhibitor project, luminescence, HEK-TIYL cells (AID 1259422);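 also: 0% = median of test compound wells and 100% = reference inhibitor wells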
Conditions: TEAD-Gal4/YAP UAS-luciferase luminescence, at 9.12 µM, active compounds read high

Compound	inhibition
O=C(O)Cc1ccc(N(CCCl)CCCl)cc1	inactive: 3.59%
